This note sets out measurements from US9907860B2, “Conjugated molecules comprising a peptide derived from the CD4 receptor coupled to an anionic polypeptide for the treatment of AIDS” (INSTITUT PASTEUR, priority 2014, dated 2018).

Data set [1] has as its system HIV-1 NL4-3 (X4) in primary CD4+ T cells. The data set can be described thus: Viral cell-to-cell transmission assay, HIV-1 NL4-3. Conditions: X4 virus HIV-1 NL4-3, primary CD4+ T cells, intracellular Gag. It counts as cell-based. The procedure:
(§1) Primary CD4+ T cells were purified from human peripheral blood by positive selection (Miltenyi). About 98% of cells were CD4+CD3+. For activation, primary T cells were treated with phytohemagglutinin (PHA) (1 μg/ml) for 24 h and then cultured with interleukin 2 (IL-2) (50 IU/ml) for 3-5 days before use. Primary cells were infected with HIV-1 NL4-3 and NLAD8 as described in Lepelley et al. PLoS Pathog 2011, 7:e1001284 and Malbec et al. J Exp Med 2013, 210:2813-2821. Donor cells were used a few days later, when about 20% of the cells were Gag+. Target cells were labeled with FarRed (2.5 μM; Molecular Probes). Donors were preincubated 1 h with the indicated doses of compounds. Donor and target cells were then mixed at a 1:2 ratio in 96-well plates at a final concentration of 1.5×10^6/ml in 200 μl, in duplicates. After 48, 72 or 96 h, cells were stained for intracellular Gag (KC57 mAb, Coulter) and analyzed by flow cytometry. When stated, Nevirapine (NVP; 12.5 nM) or the NIH45-46 broadly neutralizing antibody (bNAb) (Malbec et al. J Exp Med 2013, 210:2813-2821) was added 1 h before coculture.
(§2) mCD4.1, mCD4.2, mCD4.3 and their PS1 conjugates, as well as Nevirapine and NIH45-46, were evaluated for their capacity to inhibit cell-cell HIV transmission. This was performed using primary cells infected with R5 (HIV1-NLAD8) and X4 (HIV1-NL4-3) viruses.

For a further data set, the system named is IIIB viral strain (B-X4). It counts as cell-based, HIV. Conditions: TZM-bl cells, luciferase, 48 h; clade-tropism B-X4. The protocol: (§3) The antiviral activity of the tested compounds was determined by pre-incubating 10^4 TZM-bl cells/well in a 96-well plate for 30 min at 37° C. and 5% CO2 with or without a serial dilution of the compound. Next, 200 TCID50 of viruses were added to each well and cultures were incubated for 48 h before luciferase activity was quantified. Each compound was tested in triplicate in a single experiment. Antiviral activity was expressed as the percentage of viral inhibition compared to the untreated control and plotted against the compound concentration. Next, non-linear regression analysis was used to calculate the 50% effective concentration (EC50).
(§4) The miniCD4 conjugates were then evaluated for their antiviral activity on TZM-bl cells that express Luciferase under the control of the HIV LTR (collaboration G. Vanham, Anvers) according to the protocol described above. All antiviral results are reported in the table below in the form of EC50 values (nM).

Data set [2] has as its system MP568 (CRF02) viral strain (AG-R5). It counts as cell-based, HIV. Conditions: TZM-bl cells, luciferase, 48 h; clade-tropism AG-R5. The procedure:
as §3, §4

Data set [3] deals with p246F10 viral strain (C-R5). It counts as cell-based, HIV. Conditions: TZM-bl cells, luciferase, 48 h; clade-tropism C-R5. The procedure: as §3, §4
Data set [4] has as its system SF162 viral strain (B-R5). Type of data set: cell-based, HIV. The protocol: as §3, §4
Data set [5] deals with VI824 viral strain (D-R5). Type of data set: cell-based, HIV. Conditions: TZM-bl cells, luciferase, 48 h; clade-tropism D-R5. The protocol:
as §3, §4

The subject of data set [6] is VI829 viral strain (C-R5). Type of data set: cell-based, HIV. Conditions: TZM-bl cells, luciferase, 48 h; clade-tropism C-R5. The procedure: as §3, §4
In the next data set the test system is Bal viral strain (B-R5). Type of data set: cell-based, HIV. The protocol:
as §3, §4

For data set [7], the system named is pREJO.c/2864 cl2 viral strain (B-R5). Type of data set: cell-based, HIV. Conditions: TZM-bl cells, luciferase, 48 h; clade-tropism B-R5. The protocol:
as §3, §4

Another data set concerns MN viral strain (B-X4). Type of data set: cell-based, HIV. Conditions: TZM-bl cells, luciferase, 48 h; clade-tropism B-X4. The protocol: as §3, §4
Data set [8] has as its system Ca10-3 (CRF01) viral strain (AE-X4). Type of data set: cell-based, HIV. Conditions: TZM-bl cells, luciferase, 48 h; clade-tropism AE-X4. The protocol: as §3, §4
For data set [9], the system named is VI1888 (CRF01) viral strain (AE-R5). It counts as cell-based, HIV. The procedure:
as §3, §4

Data set [10] has as its system VI820 viral strain (A-X4R5). It counts as cell-based, HIV. Conditions: TZM-bl cells, luciferase, 48 h; clade-tropism A-X4R5. The procedure:
as §3, §4

The subject of data set [11] is SHIV162p3 viral strain (B-R5). It counts as cell-based. Conditions: TZM-bl cells, luciferase, 48 h; clade-tropism B-R5. The procedure:
as §3, §4

A further data set relates to HIV viral strains. The experiment in a line: Antiviral activity on TZM-bl cells, across the viral strains tested. Type of data set: cell-based. The procedure:
as §3, §4

A short description of data set [12]: Cytotoxic activity, WST-1 cell proliferation assay. Conditions: human; WST-1, 48 h. Type of data set: cell-based. The procedure:
Cytotoxicity was determined using the water-soluble tetrazolium-1 (WST-1) cell proliferation assay, which is based on the cleavage of the tetrazolium salt WST-1 to a formazan dye by cellular dehydrogenases. Because this bioreduction is dependent on the glycolytic production of NAD(P)H in viable cells, the amount of formazan dye formed is correlated directly to the number of viable cells in a culture. Quantification is performed by measuring absorbance at 450 nm in a multiwell plate reader. An amount of 10^4 cells was plated per well in a 96-well plate, and a serial dilution of compound was added. Forty eight hours later, cell proliferation reagent was added and cell viability was measured compared to untreated control cultures. Cell viability was plotted against the compound concentration, and nonlinear regression analysis was performed to evaluate the 50% cytotoxic concentration (CC50).
The miniCD4 conjugates were then evaluated for their cytotoxic activity according to the protocol described above. All cytotoxic results are reported in the table below in the form of CC50 values (nM).

The test system of data set [13] is HIV-1 NLAD8 (R5) in primary CD4+ T cells. The experiment in a line: Viral cell-to-cell transmission assay, HIV-1 NLAD8. It counts as cell-based. Conditions: R5 virus HIV-1 NLAD8, primary CD4+ T cells, intracellular Gag. The protocol:
as §1, §2

Like-named read-outs stand apart in the source and are kept apart here.

For the molecule `CC(C)C[C@@H]1NC(=O)CNC(=O)[C@H](CC(C)C)NC(=O)[C@H](CO)NC(=O)[C@H](CO)NC(=O)[C@@H]2CSSC[C@@H](C(=O)N[C@H](C(N)=O)C(C)C)NC(=O)[C@H](C)NC(=O)[C@@H]3CSSC[C@H](NC(=O)[C@H](CCCCNC(=O)CCOCCOCCNC(=O)CCN4C(=O)CC(SCCC(=O)NCCCC(=O)N[C@@H](CO)C(=O)N[C@@H](Cc5ccc(OS(=O)(=O)O)cc5)C(=O)N[C@@H](CC(=O)O)C(=O)N[C@@H](Cc5ccc(OS(=O)(=O)O)cc5)C(=O)N[C@@H](CO)C(=O)N[C@@H](Cc5ccc(OS(=O)(=O)O)cc5)C(=O)N[C@@H](CC(=O)O)C(=O)N[C@@H](Cc5ccc(OS(=O)(=O)O)cc5)C(=O)N[C@@H](CO)C(=O)N[C@@H](Cc5ccc(OS(=O)(=O)O)cc5)C(=O)N[C@@H](CC(=O)O)C(=O)N[C@@H](Cc5ccc(OS(=O)(=O)O)cc5)C(=O)N[C@@H](CO)C(=O)O)C4=O)NC(=O)[C@H](Cc4c[nH]cn4)NC(=O)[C@H](CC(C)C)NC(=O)[C@H](CC(N)=O)NC(=O)CCSSC[C@H](NC(=O)[C@H](CCCNC(=N)N)NC(=O)CNC(=O)[C@H](CC(C)C)NC1=O)C(=O)N[C@@H](C)C(=O)N1CCC[C@@H]1C(=O)N[C@@H]([C@@H](C)O)C(=O)N[C@@H](Cc1ccc(OCC4CCCCC4)cc1)C(=O)N3)C(=O)N[C@@H](CCC(N)=O)C(=O)N[C@@H](CC(C)C)C(=O)N[C@@H](CCCNC(=N)N)C(=O)N2` (stereo partly drawn) [mCD4.2-PS1], the “block of cell-cell virus transmission” value in data set [1] and in data set [13] was “able to block cell-cell virus transmission” throughout. Besides, the concentration for a half-maximal effect (EC50) in the data set with IIIB viral strain (B-X4) worked out at 0.007 nM; in data set [2], 4.9 nM; in data set [3], 58 nM; in [4] (discussion, read-out: EC50, SF162 strain, B-R5) it was 0.01 nM; in [5], 0.68 nM; in data set [6], 4 nM. Besides, the EC50 worked out at 0.034 nM in the data set on Bal viral strain (B-R5) (TZM-bl cells, luciferase, 48 h, clade-tropism B-R5, read-out: EC50, viral strain Bal); 0.034 nM with Bal viral strain (B-R5) (discussion, read-out: EC50, Bal strain, B-R5); 0.27 nM in data set [7]; 0.046 nM in the data set with MN viral strain (B-X4); 0.12 nM in [8]; 1060 nM in data set [9] (TZM-bl cells, luciferase, 48 h, clade-tropism AE-R5, read-out: EC50, viral strain VI1888 (CRF01)). For the same molecule, the EC50 amounted to 1100 nM in [9] (discussion, read-out: EC50 for CRF01_AE R5); 0.031 nM in [10]; 2.2 nM in data set [11]. For the same molecule, the “fold increase of HIV antiviral activity compared to mCD4.1-PS1” value (in [4] (R5 strain SF162); with Bal viral strain (B-R5) (R5 strain Ba_L)) was 25 fold each time. For the same molecule, the “fold increase of antiviral activity compared to mCD4.2 alone” value in the data set with HIV viral strains is 9-190 fold. The same molecule had a CC50 at 48 h in data set [12] above 50000 nM.
